Results of unrelated studies side by side (data: NIAID ChemDB).

Common to all: growth or infection tests; organism: Hepatitis C virus; endpoint: EC50

An empty or dashed field is not shown. Two numbers with a dash give a range or band. Rows are shuffled and stem from different studies. ECn is the concentration giving n% inhibition of infection, replication or growth.

smiles | strain | mutations | cells | method | result
CNC(=O)c1c(-c2ccc(F)cc2)oc2cc(N3CCC(F)(F)CC3)c(OC(C)C)cc12 | - | - | Huh7 | replicon | <1 µM
COC(=O)N[C@H](C(=O)N1CCCC1c1ncc(-c2ccc(-c3ccc(-c4cnc([C@@H]5CC(C)CN5C(=O)[C@@H](NC(=O)CO)C(C)C)[nH]4)cc3)cc2)[nH]1)C(C)C | 1a | Q30H | Lunet | luciferase | 0.000708 µM
NS(=O)(=O)c1ccc(CNc2nc(NCC(F)(F)F)c3nc(-c4ccc(N5CCC(O)C5=O)cc4)ccc3n2)cc1 | - | - | - | replicon | <0.1 µM
NS(=O)(=O)c1ccc(CCNc2ncnc3c2cnn3-c2ccccc2C(F)(F)F)cc1 | - | - | HUH 9B | replicon | 1–10 µM
Fc1ccc(-c2ccc3nc(NCc4ccccn4)nc(NCC(F)(F)F)c3n2)cc1 | - | - | - | replicon | <0.1 µM
COc1ccc2c(c1)c(Sc1ccc(C)cc1)cc(=O)n2C | - | - | Huh-Luc-Neo | luciferase / replicon | <1 µM
CC1CCC(C(=O)N(c2cc(-c3ccc(NC(=O)c4cscn4)cc3)sc2C(=O)O)C2CCC2)CC1 | 1a | - | - | replicon | <0.5 µM
CNC(=O)c1c(-c2ccc(F)cc2)oc2cc(N(C)S(C)(=O)=O)c(OCc3ccc4c(c3)OC(C)(C)OC4=O)cc12 | - | - | Huh7 | replicon | <1 µM
NC(=S)Nc1cccc(OCCCCCOc2cccnc2)c1 | - | - | Ava5-EG(delta4AB)SEAP | reporter gene / fluorescence | 0.001–1 µM
CCCCc1ccc(Nc2ncnc3c2cnn3-c2ccccc2Br)cc1 | - | - | HUH 9B | replicon | 1–10 µM
CN(C)C(=S)Nc1cccc(OCCCCCOc2ccc(-c3ccccc3)cc2)c1 | - | - | Ava5-EG(delta4AB)SEAP | reporter gene / fluorescence | 0.001–1 µM
CC1CCC(C(=O)N(CC2CC2)c2cc(-c3ccc(NC(=O)c4cccnn4)cc3)sc2C(=O)O)CC1 | 1b | - | - | replicon | <0.5 µM
CNC(=O)c1c(-c2ccc(C#N)cc2)oc2ccc(OC(C)C)cc12 | - | - | Huh7 | replicon | <30 µM
S=C(NCc1ccccc1)Nc1ccc2c(c1)Cc1cc(Br)ccc1-2 | - | - | Ava5-EG(delta4AB)SEAP | reporter gene / fluorescence | 0.001–1 µM
CCc1ccc2c(c1)c(Sc1ccc(N)cc1)cc(=O)n2C | - | - | Huh-Luc-Neo | luciferase / replicon | <1 µM
Cc1ccc(-n2ncc3c(Nc4ccc(C(N)=O)cc4)ncnc32)c(C)c1 | - | - | HUH 9B | replicon | 1–10 µM
Cn1c(=O)cc(Sc2ccc(NC(=O)[C@@H](NC(=O)OC(C)(C)C)C3CCCCC3)cc2)c2ccccc21 | - | - | Huh-Luc-Neo | luciferase / replicon | <1 µM
CC(C)Nc1cnn(-c2ccc3nc(NCc4ccc(S(N)(=O)=O)cc4)nc(NCC(F)(F)F)c3n2)c1 | - | - | - | replicon | <0.1 µM
CNC(=O)c1c(-c2ccc(F)cc2)oc2cc(-c3cn[nH]c3)c(OC(C)C)cc12 | - | - | Huh7 | replicon | <10 µM
O=C(N[C@@H](C(=O)N1CCC[C@H]1c1ncc(-c2ccc(-c3ccc(-c4cnc([C@@H]5CCCN5C(=O)[C@H](NC(=O)C5CC5)c5ccccc5)s4)cc3)cc2)s1)c1ccccc1)C1CC1 | genotype 1b | M265V | Huh7.5 | luciferase / reporter gene | 0.000002 µM
Cc1ncsc1C(=O)Nc1ccc(-c2cc(N(C(=O)C3CCC(C)CC3)C(C)C)c(C(=O)O)s2)cc1 | 1b | - | - | replicon | <0.5 µM
CNC(=O)c1c(-c2ccc(F)cc2)oc2cc(N(C)S(C)(=O)=O)c(OCc3cc(OC)cc(OC)c3)cc12 | - | - | Huh7 | replicon | <1 µM
NC(=S)Nc1cccc(OCCCCCOc2cccc(C(O)c3ccccc3)c2)c1 | - | - | Ava5-EG(delta4AB)SEAP | reporter gene / fluorescence | 0.001–1 µM
CC1CCC(C(=O)N(c2cc(-c3ccc(NC(=O)c4cn(C)cn4)cc3)sc2C(=O)O)C(C)C)CC1 | 1a | - | - | replicon | <0.5 µM
Cn1c(=O)cc(Sc2ccc(C(C)(C)C)cc2)c2ccccc21 | - | - | Huh-Luc-Neo | luciferase / replicon | 1–10 µM
CCOc1nc(NCc2ccc(S(N)(=O)=O)cc2)nc2ccc(-c3cccc(N(CCO)S(C)(=O)=O)c3)nc12 | - | - | - | replicon | 0.1–0.25 µM
NC(=S)Nc1cccc(NCCCCCCCCc2ccccc2)c1 | - | - | Ava5-EG(delta4AB)SEAP | reporter gene / fluorescence | 0.001–1 µM
Cc1cc2c(Sc3ccc(F)cc3)cc(=O)n(C)c2cc1C | - | - | Huh-Luc-Neo | luciferase / replicon | <1 µM
Cc1ccccc1-n1ncc2c(NCCc3ccc(S(N)(=O)=O)cc3)ncnc21 | - | - | HUH 9B | replicon | 1–10 µM
NC(=S)Nc1ccc2c(c1)Cc1cc(N)ccc1-2 | - | - | Ava5-EG(delta4AB)SEAP | reporter gene / fluorescence | 0.001–1 µM
CCCCc1ccc(Nc2ncnc3c2cnn3-c2ccccc2C)cc1 | - | - | HUH 9B | replicon | 1–10 µM
Cn1c(=O)cc(Sc2cccc(F)c2)c2ccccc21 | - | - | Huh-Luc-Neo | luciferase / replicon | 1–10 µM
CCCCc1ccc(Nc2ncnc3c2cnn3-c2ccc(F)cc2F)cc1 | - | - | HUH 9B | replicon | 1–10 µM
NC(=S)Nc1ccc2c(c1)-c1ccccc1C2=O | - | - | Ava5-EG(delta4AB)SEAP | reporter gene / fluorescence | 0.001–1 µM
CC(C)N(C(=O)C1CCC(C)(F)CC1)c1cc(-c2ccc(NC(=O)c3cscn3)cc2)sc1C(=O)O | 1b | - | - | replicon | <0.5 µM
Cn1c(=O)cc(Sc2ccc(Cl)cc2)c2cc(F)ccc21 | - | - | Huh-Luc-Neo | luciferase / replicon | 1–10 µM
NC(=S)Nc1cccc(OCCCCCCCOc2ccccc2)c1 | - | - | Ava5-EG(delta4AB)SEAP | reporter gene / fluorescence | 0.001–1 µM
CNC(=O)c1c(-c2ccc(F)cc2)oc2cc(-c3c(C)noc3C)c(OCc3cc(C)on3)cc12 | - | - | Huh7 | replicon | <1 µM
Nc1ncc(-c2ccc3nc(NCc4ccc(S(N)(=O)=O)cc4)nc(NCC(F)(F)F)c3n2)cn1 | - | - | - | replicon | <0.1 µM
CCCCn1c(=O)c2ccccc2c2cc(C(O)(C(F)(F)F)C(F)(F)F)c3c(c21)OCO3 | 1b | - | LucNeo2 cells | luciferase | 0.23 µM
S=C1NCCN1C(=S)Nc1cccc(OCc2ccccc2)c1 | - | - | Ava5-EG(delta4AB)SEAP | reporter gene / fluorescence | 0.001–1 µM
CC(C)(C)OC(=O)N1CC[C@@H](NS(=O)(=O)c2cc(-c3ccc4nc(NCc5ccc(S(N)(=O)=O)cc5)nc(NCC(F)(F)F)c4n3)ccc2F)C1 | - | - | - | replicon | <0.1 µM
CNC(=O)c1c(-c2ccc(F)cc2)oc2cc(N3CCOCC3)c(OCc3cccc(OC)c3)cc12 | - | - | Huh7 | replicon | <1 µM
Cn1c(=O)cc(Sc2ccc(N)cc2)c2cccnc21 | - | - | Huh-Luc-Neo | luciferase / replicon | <1 µM
Cc1ccc(-n2ncc3c(Nc4cccc(Cl)c4)ncnc32)c(C)c1 | - | - | HUH 9B | replicon | 1–10 µM
COc1cc(-c2ccc3nc(NCc4ccc(S(N)(=O)=O)cc4)nc(NCC(F)(F)F)c3n2)ccn1 | - | - | - | replicon | <0.1 µM
CC1CCC(C(=O)N(c2cc(-c3ccc(NC(=O)c4ccncn4)cc3)sc2C(=O)O)C(C)C)CC1 | 1b | - | - | replicon | <0.5 µM
Cc1ccc(Nc2ncnc3c2cnn3Cc2ccccc2)c(C)c1 | - | - | HUH 9B | replicon | 1–10 µM
CCOc1nc(NCc2ccc(F)cc2)nc2ccc(-c3cccc(NS(=O)(=O)CCN4CCCC4)c3)nc12 | - | - | - | replicon | <0.1 µM